A mixed list of measured activities; the numbers were collected in NIAID ChemDB.

All rows: host cell toxicity; read-out: CC50

Blank or dashed fields: not listed here. Two numbers with a dash give a range or band. Rows are shuffled and stem from different studies. CCn: concentration that lowers growth or viability of the cells by n%.

structure	cell line	method	value
CCOC(=O)CCCCCOc1cccc(CN(C(=O)c2ccc(-c3ccc(Cl)c(Cl)c3)cc2)C(C)C)c1	HepG2	-	>20 µM
CC(C)[C@@H](NC(=O)C[C@@H]1O[C@@H]1[C@H](Cc1ccccc1)NC(=O)[C@@H](NC(=O)OCc1ccccc1)C(C)(C)S(C)(=O)=O)c1ccccc1	H9	-	>100 µM
O=C(/C=C/c1ccc(O)c(O)c1)O[C@H]1[C@H](O)C[C@](O)(C(=O)O)C[C@H]1OC(=O)/C=C/c1ccc(O)c(O)c1	Hep2.2.15	MTT	>400 µg/mL
Cc1cc(NC(=O)c2c(C)c(C(=O)C(=O)NC3(C)CCC(O)CC3)n(C)c2C(C)C)ccc1F	HepG2	MTT	>30 µM
CCc1cc2c(N)c(C(N)=O)sc2nc1C	CEM-SS	XTT	40 µM
CCc1c(C(=O)Nc2ccc(F)c(C)c2)c(C)c(C(=O)C(=O)NC2(C)CCC(O)CC2)n1C	HepG2	MTT	>30 µM
NC(=O)c1cc(C(=O)NC2CC3(C2)CC(c2nc4cc(Cl)ccc4s2)C3)ccn1	Primary human hepatocytes	absorbance	>50 µM
CCOC(=O)C1=C(O)/C(=C\c2cc(C)n(C3CCN(Cc4cccnc4)CC3)c2C)N=C1C	L6	-	27 µM
Cc1cc(NC(=O)c2c(C)c(C(=O)C(=O)NC3CCC(O)CC3)n(C)c2C2CC2)ccc1F	HepG2	MTT	>30 µM
COC1=NC=C[C@@H]2O[C@@H]3SC(OC)=NC=C[C@@H]3O[C@@H]2S1	EL-4	sulforhodamine	65 µg/mL
CCn1nc(C)cc1-c1cc(C)on1	MIT-4	-	>200 µM
CCOC(=O)COc1ccc(CNC(C)C)cc1	HEK 293	-	>20 µM
CC(C)[C@H](Cc1ccccc1)NC(=O)C[C@@H]1O[C@@H]1[C@H](Cc1ccccc1)NC(=O)[C@@H](NC(=O)OCc1ccccc1)C(C)(C)S(C)(=O)=O	H9	-	>100 µM
Cc1cc(NC(=O)c2c(C)c(C(=O)C(=O)NC3C[C@H]4C[C@@H]3CC4O)n(C)c2C)ccc1F	HepG2	MTT	>30 µM
O=C(N=Nc1c(O)[nH]c2ccccc12)Nc1ccccc1	hRD	-	>25 µM
CCOC(=O)CCCCCOc1cccc(CN(C(=O)c2ccc(-c3cccc(Cl)c3)cc2)C(C)C)c1	HEK 293	-	<13.5 µM
Cc1cc(-c2c(N=O)c(C)nn2CCO)no1	MIT-4	-	13.5 µM
CC(C)(CF)C(=O)Nc1cccc(NS(=O)(=O)c2ccc(-c3noc(-c4ccccc4)n3)cc2)c1	3T3	-	<16 µM
O=C(N/N=C/c1ccc(Oc2no[n+]([O-])c2-c2ccccc2)cc1)c1ccncc1	J774A.1	resazurin	409 µM
CC(=O)N1CC[C@H](NC(=O)C(=O)c2c(C)c(C(=O)Nc3ccc(F)c(C)c3)c(C)n2C)C[C@H]1C	HepG2	MTT	>30 µM
N=C(N)c1ccc(-c2cc(-c3ccc(C(=N)N)nc3)on2)cc1	L6 rat myoblasts	resazurin	>180 µM
CC(C)N(Cc1cccc(OCCCCCC(=O)OC(=O)O)c1)C(=O)c1ccc(-c2cccc(-c3ccccc3)c2)cc1	BJ	-	>20 µM
OC(Cn1cncn1)(Cn1cncn1)c1ccc(F)cc1F	MIT-4	-	>200 µM
CCCNC(=S)N=Nc1c(O)[nH]c2ccccc12	hRD	-	>25 µM
Cc1cc(-c2cc(C)n(CCO)n2)no1	MIT-4	-	>200 µM
Cc1c(C(=O)Nc2cc(F)c(F)c(F)c2)c(C)n(C)c1C(=O)C(=O)NC1(C)CCC(O)CC1	HepG2	MTT	>30 µM
Cc1onc(-c2nn(C)c(C)c2[N+](=O)[O-])c1[N+](=O)[O-]	MIT-4	-	>200 µM
CC(C)N(Cc1cccc(OCCCCCC(=O)OC(=O)O)c1)C(=O)c1ccc(-c2cccc3ccccc23)cc1	RAJI	-	>20 µM
OCC1CCC(c2ccc3ncnc(Nc4ccc(C5CCOCC5)cc4)c3c2)O1	Con1-SR	-	29.3 µM
Oc1[nH]c2ccccc2c1N=NC(=S)N1CCCCC1	hRD	-	>25 µM
Cc1c(C(=O)NC2COCCOC2)c(C)n(C)c1C(=O)C(=O)NC(C)(C)C	HepG2	MTT	>30 µM
Cc1cc(-c2nn(C)c(C)c2N=O)no1	MIT-4	-	9.1 µM
O=C(NC1CC2(C1)CC(c1nc3cc(Cl)ccc3o1)C2)c1ccc(S(=O)CC2CC2)o1	Primary human hepatocytes	absorbance	>10 µM
CCOC(=O)CCCCCOc1cccc(CN(C(=O)c2ccc(-c3cccc(OC(C)C)c3)cc2)C(C)C)c1	HEK 293	-	>20 µM
Cc1cc(NC(=O)c2c(C)c(C(=O)C(=O)NC3CCC(O)CC3)n(C)c2C2CCCCC2)ccc1F	HepG2	MTT	5–30 µM
CC(C)C(NC(=O)C[C@@H]1O[C@@H]1[C@H](Cc1ccccc1)NC(=O)[C@@H](NC(=O)OCc1ccncc1)C(C)(C)S(C)(=O)=O)C(C)C	H9	-	>100 µM
Clc1ccc2c(NCCCNc3nccc(N4CCNCC4)n3)ccnc2c1	CRFK cells	MTS / tetrazolium / absorbance	74 µM
CCn1nc(C)c([N+](=O)[O-])c1-c1cc(C)on1	MIT-4	-	>200 µM

5 of the rows above, restated:

Cc1cc(-c2c(N=O)c(C)nn2CCO)no1 ; cell line: MIT-4 ; value: 13.5 µM
CCOC(=O)CCCCCOc1cccc(CN(C(=O)c2ccc(-c3cccc(OC(C)C)c3)cc2)C(C)C)c1 ; cell line: HEK 293 ; value: >20 µM
CC(C)N(Cc1cccc(OCCCCCC(=O)OC(=O)O)c1)C(=O)c1ccc(-c2cccc(-c3ccccc3)c2)cc1 ; cell line: BJ ; value: >20 µM
CC(C)[C@@H](NC(=O)C[C@@H]1O[C@@H]1[C@H](Cc1ccccc1)NC(=O)[C@@H](NC(=O)OCc1ccccc1)C(C)(C)S(C)(=O)=O)c1ccccc1 ; cell line: H9 ; value: >100 µM
CCOC(=O)CCCCCOc1cccc(CN(C(=O)c2ccc(-c3ccc(Cl)c(Cl)c3)cc2)C(C)C)c1 ; cell line: HepG2 ; value: >20 µM